Anti-infective test results gathered from many reports (values: NIAID ChemDB through PubChem).

Shared fields: whole-cell or culture tests; organism: Mycobacterium tuberculosis

ECn is the concentration giving n% inhibition of infection, replication or growth.

| smiles | changes | strain or isolate | endpoint | tested at | method | value |
|---|---|---|---|---|---|---|
| CCCCS(=O)(=O)Nc1ccc2[nH]c(CNC(=O)c3ccccc3)c(C)c2c1 | - | H37Rv | MIC90 | - | resazurin | 6.25 µM |
| O=C(Nc1ccc(C(=O)O)c(O)c1)NC1CCCCC1 | - | H37Rv | MIC90 | - | broth dilution | <12.5 µg/mL |
| CN1CCN(Cc2cccc(NC(=O)/C=C/c3ccccc3)c2)CC1 | - | 103471 | MIC | - | - | 8 µg/mL |
| COc1cc(C(O)(CCN(C)C)C(c2cc(-c3cccc(C)c3)cnc2OC)c2cccc(OC)c2F)cc(OC)n1 | - | H37Rv | EC90 | - | fluorescence | 7.86 µM |
| N#Cc1c(-c2ccc(Cl)cc2)n([O-])c2cc(Cl)c(Cl)cc2[n+]1=O | - | H37Rv | MIC | - | - | 0.2 µg/mL |
| N#Cc1c(-c2ccc(F)cc2)c([N+](=O)[O-])c2c3ccccc3ccn12 | - | H37Rv | MIC | - | agar | 2.3 µM |
| CCCCN(CCCC)c1nc2c([nH]1)c1c(O)c3c(O)c(C)c4c(c32)C(=O)[C@@](C)(O/C=C/[C@H](OC)[C@@H](C)[C@@H](OC(C)=O)[C@H](C)[C@H](O)[C@H](C)[C@@H](O)[C@@H](C)/C=C/C=C(/C)C(=O)N1)O4 | - | H37Rv | MIC | - | - | 0.01 µg/mL |
| CCC(=O)O[C@H]1CC[C@]2(C)C3=CC[C@]4(C)[C@@H]([C@H](C)CC/C=C(\C)C(=O)O)C[C@H](OC(C)=O)[C@@]4(C)C3=CC[C@H]2C1(C)C | - | H37Ra | MIC90 | - | GFP | 0.391 µg/mL |
| COc1cc(C(O)(CCN(C)C)C(c2cc(-c3cccc(Cl)c3)cnc2OC)c2cccc(OC)c2F)cc(OC)n1 | - | H37Rv | EC90 | - | fluorescence | 8.34 µM |
| O=C(Nc1cccc(CN2CCOCC2)c1)c1ccc(-c2ccccc2)cc1 | - | 103471 | MIC | - | - | 8 µg/mL |
| CC1COc2c(N3CCN(C)CC3)c(F)cc3c(=O)c(C(=O)O)cn1c23 | - | 188 strains | MIC90 | - | - | 1 µg/mL |
| O=C1C(c2ccc([N+](=O)[O-])cc2)=[N+]([O-])c2ccccc21 | - | H37Rv | EC50 | - | MTT | 12.4 µM |
| Cc1cc(NS(=O)(=O)c2ccc(NC(=O)C(C)(C)C)cc2)no1 | - | H37Rv | MIC | - | - | 10 µg/mL |
| COc1ccc(-c2c([N+](=O)[O-])c3c4ccccc4ccn3c2C#N)cc1 | - | H37Rv | MIC | - | agar | 36.4 µM |
| CN[C@@H]1[C@H](O[C@H]2[C@H](O[C@H]3[C@H](O)[C@@H](O)[C@H](N=C(N)N)[C@@H](O)[C@@H]3N=C(N)N)O[C@@H](C)[C@]2(O)C=O)O[C@@H](CO)[C@H](O)[C@H]1O | - | H37Ra | MIC90 | - | GFP | 0.625 µg/mL |
| CO[C@H]1/C=C/O[C@@]2(C)Oc3c(C)c(O)c4c(O)c(c5[nH]c(N(C(C)C)C(C)C)nc5c4c3C2=O)NC(=O)/C(C)=C\C=C\[C@H](C)[C@H](O)[C@@H](C)[C@@H](O)[C@@H](C)[C@H](OC(C)=O)[C@@H]1C | - | H37Rv | MIC | - | - | 0.04 µg/mL |
| O=C1C(c2ccc(Cl)cc2)=[N+]([O-])c2ccccc21 | - | H37Rv | EC50 | - | MTT | 7.9 µM |
| CC(C)c1ccc(-c2c([N+](=O)[O-])c3ccccn3c2C#N)cc1 | - | H37Rv | MIC | - | agar | 40.9 µM |
| CC(C)(C)C(=O)Nc1ccc(S(=O)(=O)c2ccc(N)cc2)cc1 | - | H37Rv | MIC | - | - | 10 µg/mL |
| CC1=C(C(=O)Nc2cc(C)ccc2C)C(c2ccccc2O)C(C(=O)Nc2cc(C)ccc2C)=C(C)N1 | - | H37Rv | inhibition | 2.5 µg/mL | - | 27% |
| O=C1OCCOCCOCCOCCOC(=O)C1c1ccccc1 | - | H37Rv | MIC | - | BACTEC | ≥12.5 µg/mL |
| CCCCS(=O)(=O)Nc1ccc2[nH]c(C(=O)N3CCOCC3)c(C)c2c1 | - | H37Rv | MIC90 | - | resazurin | 12.5 µM |
| COc1ccc(-c2c([N+](=O)[O-])c3ccccn3c2C#N)cc1 | - | H37Rv | MIC | - | agar | 85 µM |
| CC(C)c1cnc(C(=O)/C=C/c2ccc(Br)cc2)cn1 | - | H37Rv | MIC | - | absorbance | 25 µg/mL |
| COC(=O)c1cc(O)c(O)c(O)c1 | - | ATCC 25177 | MIC | - | resazurin | 250 µg/mL |
| C[C@@H]1CN(c2c(F)c(N)c3c(=O)c(C(=O)O)cn(C4CC4)c3c2F)C[C@H](C)N1 | - | 20 strains | MIC50 | - | - | 0.25 µg/mL |
| COc1cc(C(O)(CCN(C)C)C(c2cc(Br)cnc2OC)c2cccc(OC)c2F)cc(OC)n1 | - | H37Rv | EC90 | - | fluorescence | 10.77 µM |
| CC(C)=CCOc1c2ccoc2cc2oc(=O)ccc12.NNC(=O)c1ccncc1 | - | H37Rv | MIC100 | - | agar | 1.56 µg/mL |
| CSc1ccc(C2C(C(=O)Nc3cccc([N+](=O)[O-])c3)=C(C)NC(C)=C2C(=O)Nc2cccc([N+](=O)[O-])c2)cc1 | - | H37Rv | inhibition | 2.5 µg/mL | - | 98% |
| CO[C@@H]1C[C@@H](C[C@H]2CC[C@H](C)[C@H]([C@@H](C)C(=O)O)O2)O[C@]2(O[C@](C)([C@H]3CC[C@@](C)([C@@H]4O[C@@H]([C@H]5O[C@@](O)(CO)[C@H](C)C[C@@H]5C)C[C@@H]4C)O3)C[C@H]2C)[C@@H]1C | - | H37Rv | MIC bound | - | BACTEC | ≤12.5 µg/mL |
| COc1ccc2cc(C3=[N+]([O-])c4ccccc4C3=O)ccc2c1 | - | H37Rv | MIC | - | MTT | 3.2 µM |
| COc1nc2ccc(Br)cc2cc1[C@@H](c1ccccc1)[C@@](O)(CCN(C)C)c1cccc2ccccc12 | - | 75 clinical isolates (41 susceptible 44 MDR) | EC50 | - | - | <0.128 µg/mL |
| CO[C@H]1/C=C/O[C@@]2(C)Oc3c(C)c(O)c4c(O)c(c5[nH]c(N(C)c6ccccc6)nc5c4c3C2=O)NC(=O)/C(C)=C\C=C\[C@H](C)[C@H](O)[C@@H](C)[C@@H](O)[C@@H](C)[C@H](OC(C)=O)[C@@H]1C | - | H37Rv | MIC | - | - | 0.02 µg/mL |
| CCCCS(=O)(=O)Nc1ccc2[nH]c(C(=O)OCC)c(C)c2c1 | A119T DG167-resistant | DRM167 8x2 | MIC90 | - | resazurin | >100 µM |
| CC(C)(C)C(=O)NNC(=O)c1ccncc1 | - | H37Rv | MIC | - | - | 5 µg/mL |
| CO[C@H]1/C=C/O[C@@]2(C)Oc3c(C)c(O)c4c(O)c(c(/C=N/N5CCN(C)CC5)c(O)c4c3C2=O)NC(=O)/C(C)=C\C=C\[C@H](C)[C@H](O)[C@@H](C)[C@@H](O)[C@@H](C)[C@H](OC(C)=O)[C@@H]1C | - | H37Rv | MIC | - | - | 0.114 µM |
| N#Cc1c(-c2ccc(Cl)cc2)c([N+](=O)[O-])c2ccccn12 | - | H37Rv | MIC | - | agar | 21 µM |
| CCCCCCCCC(=O)NNC(=O)c1ccncc1 | - | H37Rv | MIC | - | - | 0.025 µg/mL |
| O=C(Nc1cccc(Cn2ccnc2)c1)c1ccc(Cl)cc1 | - | 103471 | MIC | - | - | >16 µg/mL |
| CO[C@H]1/C=C/O[C@@]2(C)Oc3c(C)c(O)c4c(O)c(c5[nH]c(N6CCN(C)CC6)nc5c4c3C2=O)NC(=O)/C(C)=C\C=C\[C@H](C)[C@H](O)[C@@H](C)[C@@H](O)[C@@H](C)[C@H](OC(C)=O)[C@@H]1C | - | H37Rv | MIC | - | - | 0.005 µg/mL |
| CC1=C(C(=O)Nc2ccc(Cl)cc2)C(c2cccc([N+](=O)[O-])c2)C(C(=O)Nc2ccc(Cl)cc2)=C(C)N1 | - | H37Rv | inhibition | 2.5 µg/mL | - | 29% |
| CC(=O)O[C@H]1C[C@H]([C@H](C)CC/C=C(\C)C(=O)O)[C@@]2(C)CC=C3C(=CC[C@H]4C(C)(C)[C@@H](OC=O)CC[C@]34C)[C@]12C | - | H37Ra | MIC90 | - | GFP | 1.56 µg/mL |
| COc1cc(C(O)(CCN(C)C)C(c2cc(-c3cccnc3)cnc2OC)c2cccc(OC)c2F)cc(OC)n1 | - | H37Rv | EC90 | - | fluorescence | 19.16 µM |
| O=C(/C=C/c1ccc(Cl)cc1)c1cnccn1 | - | H37Rv | MIC | - | absorbance | 50 µg/mL |
| Clc1nccc2[nH]c(CC3CCCCC3)c(CN3CCOCC3)c12 | - | H37Rv | EC50 | - | resazurin | >50 µg/mL |
| Clc1ccc(Nc2cc3nc4ccccc4n(-c4ccc(Cl)cc4)c-3cc2=NC2CCCC2)cc1 | - | H37Ra | MIC90 | - | GFP | 0.938 µg/mL |
| COc1ncc(F)c2nc(S(=O)(=O)Nc3ncccc3C(C)=O)nn12 | INH RIF resistant | P887 | MIC50 | - | visual reading | 0.5 µM |
| CCOCCN(CCOCC)c1nc2c([nH]1)c1c(O)c3c(O)c(C)c4c(c32)C(=O)[C@@](C)(O/C=C/[C@H](OC)[C@@H](C)[C@@H](OC(C)=O)[C@H](C)[C@H](O)[C@H](C)[C@@H](O)[C@@H](C)/C=C/C=C(/C)C(=O)N1)O4 | - | H37Rv | MIC | - | - | 0.01 µg/mL |
| CCOC(=O)c1c(-c2ccccc2)cc2c3ccccc3ccn12 | - | H37Rv | MIC | - | agar | 17.3 µM |
| CCc1nc2ccc(Cl)cn2c1C(=O)NCc1ccc(N2CCC(c3ccc(OC(F)(F)F)cc3)CC2)cc1 | cydABcomp | H37Rv | MIC50 | - | resazurin | 0.0014 µM |
| N#Cc1c(-c2ccc(Cl)cc2)c([N+](=O)[O-])c2c3ccccc3ccn12 | - | H37Rv | MIC | - | agar | 9 µM |
| CCC(=O)O[C@H]1CC[C@]2(C)C3=CC[C@]4(C)[C@@H]([C@H](C)CC/C=C(\C)C(=O)O)C[C@H](OC(=O)CC)[C@@]4(C)C3=CC[C@H]2C1(C)C | - | H37Ra | MIC90 | - | GFP | 0.781 µg/mL |
| N#Cc1c(-c2ccc(F)cc2)c([N+](=O)[O-])c2ccccn12 | - | H37Rv | MIC | - | agar | 5.5 µM |
| C[C@@H]1CN(c2c(F)c(N)c3c(=O)c(C(=O)O)cn(C4CC4)c3c2F)C[C@H](C)N1 | - | 5 strains (ofloxacin-resistant) | MIC | - | - | 0.63–2.5 µg/mL |
| COc1cc(O)cc2cc3c(c(O)c12)C(=O)CC(C)(O)O3 | - | H37Rv | MIC | - | - | >180 µM |
| COc1cc(C(O)(CCN(C)C)C(c2cc(-c3ccc(F)cc3)cnc2OC)c2cccc(OC)c2F)cc(OC)n1 | - | H37Rv | EC90 | - | fluorescence | 13.67 µM |
| CCc1c(Cl)c(O)c(Cl)c(O)c1C(=O)O[C@H]1[C@H](O)[C@H](OC)[C@H](OC/C2=C\C=C\CC(O)/C(C)=C/C(CC)C(O[C@@H]3OC(C)(C)[C@@H](OC(=O)C(C)C)[C@H](O)[C@@H]3O)/C(C)=C/C(C)=C/CC(C(C)O)OC2=O)O[C@@H]1C | - | H37Rv | MIC50 | - | broth dilution | 0.085 µM |
| CC(C)c1cnc(C(=O)/C=C/c2ccccc2Br)cn1 | - | H37Rv | MIC | - | absorbance | 12.5 µg/mL |
| CO[C@H]1/C=C/O[C@@]2(C)Oc3c(C)c(O)c4c(O)c(c5[nH]c(N(C)Cc6ccccc6)nc5c4c3C2=O)NC(=O)/C(C)=C\C=C\[C@H](C)[C@H](O)[C@@H](C)[C@@H](O)[C@@H](C)[C@H](OC(C)=O)[C@@H]1C | - | H37Rv | MIC | - | - | 0.02 µg/mL |
| CCCc1cnc(C(=O)/C=C/c2ccccc2F)cn1 | - | H37Rv | MIC | - | absorbance | 12.5 µg/mL |
| COc1ccc(C2=[N+]([O-])c3ccccc3C2=O)cc1 | - | H37Rv | EC50 | - | MTT | 10.2 µM |
| COc1c(N2CCNC(C)C2)c(F)cc2c(=O)c(C(=O)O)cn(C3CC3)c12 | - | Quinolone-susceptible isolates | MIC90 | - | - | 0.39 µg/mL |
| CCCCS(=O)(=O)Nc1ccc2[nH]c(C(=O)N(CC)CC)c(C)c2c1 | - | H37Rv | MIC90 | - | resazurin | >100 µM |
| Nc1ccc(S(=O)(=O)c2ccc(N)cc2)cc1 | - | - | inhibition | 16 µg/mL | - | 0% |
| O=C(/C=C/c1ccccc1F)c1cnccn1 | - | H37Rv | MIC | - | absorbance | 12.5 µg/mL |
| CC1COc2c(N3CCN(C)CC3)c(F)cc3c(=O)c(C(=O)O)cn1c23 | - | 5 strains | MIC | - | - | ≥1.25 µg/mL |
| COc1ccc2c(c1)C(=O)C(c1ccc(Oc3ccccc3)cc1)=[N+]2[O-] | - | H37Rv | MIC | - | MTT | 6.25 µM |
| CC(C)(C)c1cnc(C(=O)/C=C/c2ccccc2Cl)cn1 | - | H37Rv | MIC | - | absorbance | 3.13 µg/mL |

5 of the rows above, restated:

| smiles | changes | strain or isolate | endpoint | tested at | method | value |
|---|---|---|---|---|---|---|
| CN1CCN(Cc2cccc(NC(=O)/C=C/c3ccccc3)c2)CC1 | - | 103471 | MIC | - | - | 8 µg/mL |
| CCCCS(=O)(=O)Nc1ccc2[nH]c(CNC(=O)c3ccccc3)c(C)c2c1 | - | H37Rv | MIC90 | - | resazurin | 6.25 µM |
| O=C(Nc1cccc(Cn2ccnc2)c1)c1ccc(Cl)cc1 | - | 103471 | MIC | - | - | >16 µg/mL |
| CCCCS(=O)(=O)Nc1ccc2[nH]c(C(=O)N3CCOCC3)c(C)c2c1 | - | H37Rv | MIC90 | - | resazurin | 12.5 µM |
| N#Cc1c(-c2ccc(Cl)cc2)n([O-])c2cc(Cl)c(Cl)cc2[n+]1=O | - | H37Rv | MIC | - | - | 0.2 µg/mL |

Rows are shuffled and stem from different studies. A number after MIC or MFC names an inhibition level or a share of isolates. Blank or dashed fields: not listed here. a–b is a range or a potency band. Inhibition is in % at the dose shown (toxicity tests: loss of growth or viability). MIC bound comes from a single tested concentration.